A mixed list of measured activities; the numbers were collected in NIAID ChemDB.

All rows: whole-cell or culture tests; organism: HIV-1

ECn: concentration that inhibits the pathogen or its effect by n%.

C/C(=N\NC(=O)CN1c2c(-c3ccccc3)n[nH]c2-c2ccccc2S1(=O)=O)c1cc(C)oc1C ; read by: RT activity ; cell line: PBMC ; measure: EC90 ; result: >100 µM
CC(C)CCC[C@@H](C)[C@H]1CC[C@H]2[C@]3(C)CC[C@H]4C[C@@H](CCCC=C(c5cc(Cl)c(O)c(C(=O)O)c5)c5cc(Cl)c(O)c(C(=O)O)c5)CC[C@]4(C)[C@H]3CC[C@@]21C ; strain or isolate: RF ; read by: cytopathic effect ; cell line: CEM + CEM-SS ; measure: EC50 ; result: 3.4 µM
CC(C)C1=C2[C@H]3CC[C@@H]4[C@@]5(C)CC[C@H](OC(=O)[C@H]6C[C@@H](C(=O)O)C6(C)C)C(C)(C)[C@@H]5CC[C@@]4(C)[C@]3(C)CC[C@@]2([C@@H](O)CNCC(C)(C)NC(=O)c2ncccn2)CC1=O ; strain or isolate: 92HT599 ; read by: p24 / ELISA ; cell line: MT-2 ; measure: EC50 ; result: <1 µM
CC(C)(CS(=O)(=O)[O-])[NH2+]C(=O)C(CC(F)(OC(F)(F)C(F)(OC(F)(F)C(F)(OC(F)(F)C(F)(F)C(F)(F)F)C(F)(F)F)C(F)(F)F)C(F)(F)F)C(F)(OC(F)(F)C(F)(OC(F)(F)C(F)(OC(F)(F)C(F)(F)C(F)(F)F)C(F)(F)F)C(F)(F)F)C(F)(F)F ; strain or isolate: BaL ; read by: p24 ; cell line: PBMC ; measure: EC50 ; result: 18 µg/mL
COP(=O)(c1cc(C)cc(CCC#N)c1)c1c(C(N)=O)[nH]c2ccc(Cl)cc12 ; strain or isolate: Clinical isolate ; mutations: K103N/Y181C ; cell line: MT-2 ; measure: EC50 ; result: 0.0057 µM
CC(=O)Nc1cccc(-c2c(C)nc3c(N4CC[C@@H](NC(C)=O)C4)cc(Cl)nn23)c1 ; read by: p24 ; cell line: H9 ; measure: EC50 ; result: >100 µM
[N-]=[N+]=N[C@@H]1C[C@@H](n2cc(F)c(N)nc2=O)O[C@H]1CO ; cell line: CEM + CEM-SS ; measure: EC50 ; result: 0.3 µM
C[C@]1(Cn2cnc3c(=O)[nH]c(N)nc32)[C@H](COCP(=O)(O)O)C1(F)F ; strain or isolate: RF ; cell line: CEM ; measure: EC50 ; result: 80 µM
CC[C@H](/C=C/[C@@H](C)[C@H]1CCC2C3CC=C4CC(O[C@@H]5O[C@H](CO)[C@@H](O)[C@H](O)[C@H]5O)CC[C@]4(C)C3CC[C@@]21C)C(C)C ; strain or isolate: Tat/Rev-defective ; read by: syncytia ; cell line: 1A2 ; measure: EC50 ; result: 73.6 µg/mL
C/C(=N\NC(=O)CN1c2c(-c3ccccc3)n[nH]c2-c2ccccc2S1(=O)=O)c1sccc1C ; read by: RT activity ; cell line: PBMC ; measure: EC90 ; result: >100 µM
CCCCCCCCCNCC(O)C(O)C(OC1OC(CO)C(O)C(O)C1O)C(O)CO ; cell line: CEM + CEM-SS ; measure: EC50 ; result: 1000 µM
CC(C)CCC[C@@H](C)[C@H]1CC[C@H]2[C@@H]3CC[C@H]4C[C@@H](CCC=C(c5cc(Cl)c(O)c(C(=O)O)c5)c5cc(Cl)c(O)c(C(=O)O)c5)CC[C@]4(C)[C@H]3CC[C@]12C ; strain or isolate: RF ; read by: syncytia ; cell line: CEM + CEM-SS ; measure: EC50 ; result: 5.1 µM
COc1ccc(-c2c(C)nc3c(N4CC[C@@H](NS(C)(=O)=O)C4)cc(C)nn23)cc1OC ; read by: p24 ; cell line: H9 ; measure: EC50 ; result: 1 µM
COc1ccc2[nH]c(=S)n(Cc3c(F)cccc3F)c2c1 ; strain or isolate: IIIB ; read by: cytopathic effect / MTT ; cell line: MT-4 ; measure: EC50 ; result: >1.71 µg/mL
CC(C)CCC[C@@H](C)[C@H]1CC[C@H]2[C@]3(C)CC[C@H]4C[C@@H](CCCC(c5cc(Cl)c(O)c(C(=O)O)c5)c5cc(Cl)c(O)c(C(=O)O)c5)CC[C@]4(C)[C@H]3CC[C@@]21C ; strain or isolate: RF ; read by: cytopathic effect ; cell line: CEM + CEM-SS ; measure: EC50 ; result: 20 µM
O=C1Nc2ccc(Cl)cc2[C@@](C#CC2CC2)(C(F)(F)F)[C@H]1OCc1ccncc1 ; mutations: RT-L100I K103N ; cell line: MT-2 ; measure: EC50 ; result: <4.83 µM
C/C(=N\NC(=O)CN1c2c(-c3ccccc3)n[nH]c2-c2ccccc2S1(=O)=O)c1cc2ccccc2o1 ; read by: RT activity ; cell line: PBMC ; measure: EC90 ; result: >100 µM
C[C@]1(Cn2cnc3c(=O)[nH]c(N)nc32)[C@@H](COCP(=O)(O)O)C1(F)F ; strain or isolate: RF ; cell line: CEM ; measure: EC50 ; result: 2.4 µM
CCCCCCCCCCCCCC(=O)Nc1cc(S(=O)(=O)O)cc2cc(S(=O)(=O)O)cc(O)c12 ; cell line: CEM + CEM-SS ; measure: EC50 ; result: 150 µM
COc1ccc(-c2c(C)nc3c(N4CCCC4)cc(C)nn23)cc1OC ; read by: p24 ; cell line: H9 ; measure: EC50 ; result: 0.05 µM
COc1ccc2[nH]c(=S)n(Cc3c(F)cccc3F)c2n1 ; strain or isolate: IIIB ; read by: cytopathic effect / MTT ; cell line: MT-4 ; measure: EC50 ; result: 1.96 µg/mL
Cc1ccc(C(=O)Nc2ccc(S(=O)(=O)O)c3cc(S(=O)(=O)O)cc(S(=O)(=O)O)c23)cc1NC(=O)c1cccc(NC(=O)Nc2cccc(C(=O)Nc3cc(C(=O)Nc4ccc(S(=O)(=O)O)c5cc(S(=O)(=O)O)cc(S(=O)(=O)O)c45)ccc3C)c2)c1 ; cell line: CEM + CEM-SS ; measure: EC50 ; result: 8 µM
COc1ccc(-c2c(C)nc3c(N4CC[C@@H](NC(=O)Oc5ccccc5)C4)cc(C)nn23)cc1OC ; read by: p24 ; cell line: H9 ; measure: EC50 ; result: 0.3 µM
CC(C)C1=C2[C@H]3CC[C@@H]4[C@@]5(C)CC[C@H](OC(=O)[C@H]6C[C@@H](C(=O)O)C6(C)C)C(C)(C)[C@@H]5CC[C@@]4(C)[C@]3(C)CC[C@@]2([C@@H](O)CNC(=O)C2(N)CCC2)CC1=O ; strain or isolate: 92HT599 ; read by: p24 / ELISA ; cell line: MT-2 ; measure: EC50 ; result: <1 µM
COc1cc2c(c(OC)c1OC)-c1c(cc(O)c(OC)c1O)C[C@@H](C)[C@@H](C)C2 ; read by: MTT ; cell line: C8166 ; measure: EC50 ; result: 2.2 µg/mL
C[C@H](CCC=C(c1cc(Cl)c(O)c(C(=O)O)c1)c1cc(Cl)c(O)c(C(=O)O)c1)[C@H]1CC[C@H]2[C@@H]3CC[C@@H]4CCCC[C@]4(C)[C@H]3CC[C@]12C ; strain or isolate: IIIB ; read by: MTT ; cell line: MT-4 ; measure: EC50 ; result: 27.2 µM
O=C1CC(C#CC2CC2)(C(F)(F)F)c2cc(Cl)ccc2N1 ; mutations: RT-L100I ; cell line: MT-2 ; measure: EC50 ; result: <0.992 µM
COc1ccc(-c2c(C)nc3c(N4CC=CC4)cc(C)nn23)cc1OC ; read by: p24 ; cell line: H9 ; measure: EC50 ; result: 1 µM
C[C@H](CCCC(c1cc(Cl)c(O)c(C(=O)O)c1)c1cc(Cl)c(O)c(C(=O)O)c1)[C@H]1CC[C@H]2[C@@H]3CC[C@@H]4CCCC[C@]4(C)[C@H]3CC[C@]12C ; strain or isolate: RF ; read by: cytopathic effect ; cell line: CEM + CEM-SS ; measure: EC50 ; result: 28 µM
Nc1ccn([C@H]2CC[C@@H](CO)O2)c(=O)n1 ; cell line: CEM + CEM-SS ; measure: EC50 ; result: 0.03 µM
[2H]C(CN)(CNC[C@H](O)[C@@]12CC[C@]3(C)[C@H](CC[C@@H]4[C@@]5(C)CC[C@H](OC(=O)[C@H]6C[C@@H](C(=O)O)C6(C)C)C(C)(C)[C@@H]5CC[C@]43C)C1=C(C(C)C)C(=O)C2)NC(=O)c1ccc(Cl)cc1 ; strain or isolate: 92HT599 ; read by: p24 / ELISA ; cell line: MT-2 ; measure: EC50 ; result: <1 µM
Nc1ccc(CO[C@H]2C(=O)Nc3ccc(Cl)cc3[C@@]2(C#CC2CC2)C(F)(F)F)cc1 ; mutations: RT-K103N ; cell line: MT-2 ; measure: EC50 ; result: <1.082 µM
COc1ccc2ccc3c(c2c1)OC1(CCN(Cc2ccc(C#N)cc2)CC1)NC3=O ; read by: ELISA ; cell line: CEM ; measure: EC50 ; result: 0.031 µM
CCCCCCCCCCCCCC(=O)Nc1ccc2cc(S(=O)(=O)O)cc(S(=O)(=O)O)c2c1 ; cell line: CEM + CEM-SS ; measure: EC50 ; result: 150 µM
COc1ccc(-c2c(C)sc3c(N4CC[C@@H](NC(C)=O)C4)ncnc23)cc1OC ; read by: p24 ; cell line: H9 ; measure: EC50 ; result: >100 µM
CC(C)C1=C2[C@H]3CC[C@@H]4[C@@]5(C)CC[C@H](OC(=O)[C@H]6C[C@@H](C(=O)O)C6(C)C)C(C)(C)[C@@H]5CC[C@@]4(C)[C@]3(C)CC[C@@]2([C@@H](O)CNC(=O)c2cccnc2N2CCOCC2)CC1=O ; strain or isolate: 92HT599 ; read by: p24 / ELISA ; cell line: MT-2 ; measure: EC50 ; result: <1 µM
Fc1cccc(F)c1Cn1c(=S)[nH]c2cccnc21 ; strain or isolate: IIIB ; read by: cytopathic effect / MTT ; cell line: MT-4 ; measure: EC50 ; result: 15.8 µg/mL
NC1=NC2C(N=CN2[C@H]2C[C@@H](CCP(=O)(O)O)CO2)C(=O)N1 ; read by: MTT ; cell line: MT-4 ; measure: EC90 ; result: 95 µg/mL
Fc1cccc(F)c1Cn1c(=S)[nH]c2ccc(Cl)nc21 ; strain or isolate: IIIB ; read by: cytopathic effect / MTT ; cell line: MT-4 ; measure: EC50 ; result: 0.73 µg/mL
CCCCCCCCCCCCCCCC(=O)Nc1cc(S(=O)(=O)O)cc2cc(S(=O)(=O)O)cc(O)c12 ; cell line: CEM + CEM-SS ; measure: EC50 ; result: 27 µM
Cn1cc(C(=O)O)c(=O)c2cc(N)c(N3CCN(c4ccccn4)CC3)cc21 ; strain or isolate: IIIB ; read by: RT activity ; cell line: H9(HIV-1(IIIB)) + H9 ; measure: EC50 ; result: 0.85 µM
C=C(C)C1CC[C@@H]2CC[C@]3(C)C(CCC4[C@@]5(C)CC[C@H](O)C(C)(C)C5CC[C@]43C)C12 ; strain or isolate: Tat/Rev-defective ; read by: syncytia ; cell line: 1A2 ; measure: EC50 ; result: 6.21 µg/mL
Nc1ccn([C@@H]2C=C[C@H](CO)O2)c(=O)n1 ; strain or isolate: xxBRU ; read by: RT activity ; cell line: PBMC ; measure: EC50 ; result: 0.17 µM
CC(C)C1=C2[C@H]3CC[C@@H]4[C@@]5(C)CC[C@H](OC(=O)[C@H]6C[C@@H](C(=O)O)C6(C)C)C(C)(C)[C@@H]5CC[C@@]4(C)[C@]3(C)CC[C@@]2([C@@H](O)CNC(=O)c2ccc(CN3CCS(=O)(=O)CC3)cc2)CC1=O ; strain or isolate: 92HT599 ; read by: p24 / ELISA ; cell line: MT-2 ; measure: EC50 ; result: <1 µM
CCCCCCCCCCCCCCCCCCCCCCCCCCCCCC=C(c1cc(Cl)c(O)c(C(=O)O)c1)c1cc(Cl)c(O)c(C(=O)O)c1 ; strain or isolate: RF ; read by: cytopathic effect ; cell line: CEM + CEM-SS ; measure: EC50 ; result: 13 µM
O=C(O)c1ccc2c(c1)C(=O)N(c1ccc(-c3cc(-c4ccc(N5C(=O)c6ccc(C(=O)O)cc6C5=O)cc4)nc(-c4ccccc4)n3)cc1)C2=O ; read by: cytopathic effect / propidium iodide ; cell line: MT-4 ; measure: EC50 ; result: 20 µM
CC(C)C1=C2[C@H]3CC[C@@H]4[C@@]5(C)CC[C@H](OC(=O)[C@H]6C[C@@H](C(=O)O)C6(C)C)C(C)(C)[C@@H]5CC[C@@]4(C)[C@]3(C)CC[C@@]2([C@@H](O)CNC(=O)[C@@H](CO)NC(=O)c2ccc(Cl)cc2)CC1=O ; strain or isolate: 92HT599 ; read by: p24 / ELISA ; cell line: MT-2 ; measure: EC50 ; result: <1 µM
Cc1ccc2[nH]c(=S)n(Cc3c(F)cccc3F)c2c1 ; strain or isolate: IIIB ; read by: cytopathic effect / MTT ; cell line: MT-4 ; measure: EC50 ; result: 11.92 µg/mL

A second listing of 7 rows from above:

COc1ccc(-c2c(C)sc3c(N4CC[C@@H](NC(C)=O)C4)ncnc23)cc1OC ; read by: p24 ; cell line: H9 ; measure: EC50 ; result: >100 µM
CC(=O)Nc1cccc(-c2c(C)nc3c(N4CC[C@@H](NC(C)=O)C4)cc(Cl)nn23)c1 ; read by: p24 ; cell line: H9 ; measure: EC50 ; result: >100 µM
CC[C@H](/C=C/[C@@H](C)[C@H]1CCC2C3CC=C4CC(O[C@@H]5O[C@H](CO)[C@@H](O)[C@H](O)[C@H]5O)CC[C@]4(C)C3CC[C@@]21C)C(C)C ; strain or isolate: Tat/Rev-defective ; read by: syncytia ; cell line: 1A2 ; measure: EC50 ; result: 73.6 µg/mL
CC(C)CCC[C@@H](C)[C@H]1CC[C@H]2[C@]3(C)CC[C@H]4C[C@@H](CCCC(c5cc(Cl)c(O)c(C(=O)O)c5)c5cc(Cl)c(O)c(C(=O)O)c5)CC[C@]4(C)[C@H]3CC[C@@]21C ; strain or isolate: RF ; read by: cytopathic effect ; cell line: CEM + CEM-SS ; measure: EC50 ; result: 20 µM
COc1ccc(-c2c(C)nc3c(N4CC[C@@H](NC(=O)Oc5ccccc5)C4)cc(C)nn23)cc1OC ; read by: p24 ; cell line: H9 ; measure: EC50 ; result: 0.3 µM
COP(=O)(c1cc(C)cc(CCC#N)c1)c1c(C(N)=O)[nH]c2ccc(Cl)cc12 ; strain or isolate: Clinical isolate ; mutations: K103N/Y181C ; cell line: MT-2 ; measure: EC50 ; result: 0.0057 µM
COc1ccc(-c2c(C)nc3c(N4CC[C@@H](NS(C)(=O)=O)C4)cc(C)nn23)cc1OC ; read by: p24 ; cell line: H9 ; measure: EC50 ; result: 1 µM

Neighbouring rows are from separate reports.